Compound potency records, mixed from different reports. Data source: NIAID ChemDB in PubChem.

Common to all: tests in culture; agent: Reovirus; strain or isolate: TYPE 1; read by: cytopathic effect; measure: EC50

Neighbouring rows are from separate reports. ECn: concentration that inhibits the pathogen or its effect by n%.

C=C(N=CC)c1nc(-c2cccc(OC)c2)n(C2O[C@H](CO)[C@@H](O)[C@H](O)[C@H]2O)n1 ; cells: VERO ; value: >200 µg/mL
CC1(C)[C@@H](CCO)C[C@H]1n1nnc2c(N)nc(N)nc21 ; cells: VERO ; value: >200 µg/mL
CCOC(=O)CSc1nnc(-c2cn(-c3ccccc3)nc2-c2ccccc2)n1N ; cells: VERO ; value: >16 µg/mL
N#Cc1cncc([C@@H]2O[C@H](CO)[C@H](O)[C@@H]2O)c1 ; cells: VERO ; value: ≥100 µg/mL
Nc1ncnc2c1ncn2[C@@H]1C[C@H](CO)[C@@H](O)[C@H]1O ; cells: VERO ; value: 2 µg/mL
CC=NC(=N)c1nc(-c2ccccc2)n(COCCO)n1 ; cells: VERO ; value: 150 µg/mL
N#Cc1cncc([C@@H]2O[C@H](CO)[C@@H](O)[C@@H]2O)c1 ; cells: VERO ; value: ≥100 µg/mL
CC=NC(=N)c1nc(-c2cccc(C)c2)n(C/C=C/c2ccccc2)n1 ; cells: VERO ; value: >10 µg/mL
Nc1ncnc2c1ncn2C1CC(CO)[C@@H](O)[C@H]1O ; cells: VERO ; value: 2 µg/mL
C=C(N=CC)c1nc(-c2ccc(OC)cc2)n([C@@H]2O[C@H](CO)[C@@H](O)[C@H]2O)n1 ; cells: VERO ; value: >100 µg/mL
OC[C@H]1O[C@H](c2cncc(Br)c2)[C@@H](O)[C@H]1O ; cells: VERO ; value: ≥100 µg/mL
CC1(C)[C@@H](CCO)C[C@H]1n1nnc2c(=O)[nH]c(N)nc21 ; cells: VERO ; value: >400 µg/mL
CCOC(=O)Sc1nnc(-c2cn(-c3ccccc3)nc2-c2ccccc2)n1N ; cells: VERO ; value: >80 µg/mL
CC=NC(=N)c1nc(-c2cccc(C)c2)n(Cc2ccccc2)n1 ; cells: VERO ; value: 2 µg/mL
O=C1CSc2nnc(-c3cn(-c4ccccc4)nc3-c3ccccc3)n2N1 ; cells: VERO ; value: >16 µg/mL
CC(C)CS[C@@H]1C[C@H](n2cnc3c(N)ncnc32)[C@@H](O)[C@H]1O ; cells: HeLa ; value: >80 µg/mL
CC1(C)[C@@H](CCO)C[C@H]1n1nnc2c(N)ncnc21 ; cells: VERO ; value: >100 µg/mL
NC(=S)c1cncc([C@@H]2O[C@H](CO)[C@@H](O)[C@@H]2O)c1 ; cells: VERO ; value: ≥100 µg/mL
c1ccc(-c2nn3c(-c4cn(-c5ccccc5)nc4-c4ccccc4)nnc3s2)cc1 ; cells: VERO ; value: >16 µg/mL
CC=NC(=N)c1nc(-c2ccccc2)n(C/C=C/c2ccccc2)n1 ; cells: VERO ; value: >10 µg/mL
OC[C@H]1O[C@@H](c2cncc(Br)c2)[C@@H](O)[C@@H]1O ; cells: VERO ; value: ≥100 µg/mL

Repeating the final 3 entries:

structure | cells | value
c1ccc(-c2nn3c(-c4cn(-c5ccccc5)nc4-c4ccccc4)nnc3s2)cc1 | VERO | >16 µg/mL
CC=NC(=N)c1nc(-c2ccccc2)n(C/C=C/c2ccccc2)n1 | VERO | >10 µg/mL
OC[C@H]1O[C@@H](c2cncc(Br)c2)[C@@H](O)[C@@H]1O | VERO | ≥100 µg/mL